Pooled drug test results. Numbers come from NIAID ChemDB, via PubChem.

All rows: whole-cell or culture tests; agent: Hepatitis C virus; read by: replicon; read-out: EC50

Two numbers with a dash give a range or band. Blank or dashed fields: not listed here. ECn: concentration that inhibits the pathogen or its effect by n%. Neighbouring rows are from separate reports.

O=C(Nc1ccc(C2SC(=Nc3ccc(F)c(C(F)(F)F)c3)N(Cc3ccco3)C2=O)cc1)[C@H]1CCCN1C(=O)OCc1ccccc1 ; cell line: Huh7 ; value: 1–5 µM
CN1CC[C@H](C(=O)Nc2ccc(-c3ccc4nc(NCc5ccc(S(N)(=O)=O)cc5)nc(NCC(F)(F)F)c4n3)cc2F)C1 ; value: <0.1 µM
CC1CCC(C(=O)N(c2cc(-c3ccc(NC(=O)c4ccsc4)cc3)sc2C(=O)O)C(C)C)CC1 ; strain: 1b ; value: <0.5 µM
O=C(Cc1cccc(Cl)c1)N/N=C/c1cc(F)ccc1OS(=O)(=O)c1ccc(C(F)(F)F)cc1 ; cell line: Huh7 ; value: <5 µM
NC(=O)CCNc1nc(NCc2ccc(F)cc2)nc2ccc(-c3ccc(F)cc3)nc12 ; value: <0.1 µM
CN(c1ccccc1/C=N/NC(=O)Cc1cnc[nH]1)S(=O)(=O)c1ccc(C(F)(F)F)cc1 ; cell line: Huh7 ; value: <5 µM
CCOc1nc(NCc2ccon2)nc2ccc(-c3ccc(F)cc3)nc12 ; value: <0.1 µM
COc1cccc(CN2C(=O)C(c3ccc(NC(=O)[C@@H](C)NC(=O)OCc4ccccc4)cc3)SC2=Nc2cccc(F)c2)c1 ; cell line: Huh7 ; value: 0.1–1 µM
Cc1cccnc1C(=O)N/N=C/c1ccccc1OS(=O)(=O)c1ccc(C(F)(F)F)cc1 ; cell line: Huh7 ; value: >50 µM
CCn1nccc1C(=O)Nc1ccc(-c2cc(N(C(=O)C3CCC(C)CC3)C(C)C)c(C(=O)O)s2)cc1 ; strain: 1a ; value: >0.5 µM
O=C(CCc1ccccc1)N/N=C/c1ccccc1OS(=O)(=O)c1ccc(C(F)(F)F)cc1 ; cell line: Huh7 ; value: <5 µM
Fc1ccc(-c2ccc3nc(NCC(F)(F)F)nc(NCC(F)(F)F)c3n2)cc1 ; value: <0.1 µM
CCC(C)c1ccc(N=C2SC(c3ccc(NC(=O)[C@H]4CCCN4C(=O)OCc4ccccc4)cc3)C(=O)N2Cc2ccco2)cc1 ; cell line: Huh7 ; value: 0.1–1 µM
CC1CCC(C(=O)N(c2cc(-c3ccc(NC(=O)c4ccoc4)cc3)sc2C(=O)O)C(C)C)CC1 ; strain: 1a ; value: <0.5 µM
COc1cccc(CC(=O)N/N=C/c2ccccc2OS(=O)(=O)c2ccc3nsnc3c2)c1 ; cell line: Huh7 ; value: <5 µM
Cc1cc(F)ccc1N=C1SC(c2ccc(NC(=O)[C@H]3CCCN3C(=O)OCc3ccccc3)cc2)C(=O)N1Cc1ccco1 ; cell line: Huh7 ; value: 1–5 µM
CC(C)N(C(=O)C1CCC(C(F)(F)F)CC1)c1cc(-c2ccc(NC(=O)c3cscn3)cc2)sc1C(=O)O ; strain: 1a ; value: <0.5 µM
C[C@@H](NC(=O)OCc1ccccc1)C(=O)Nc1ccc(C2SC(=Nc3ccc(N4CCOCC4)cc3)N(Cc3cccnc3)C2=O)cc1 ; cell line: Huh7 ; value: 0.1–1 µM
CCOc1nc(NCc2ccc(S(N)(=O)=O)cc2)nc2ccc(-c3ccc(NC(=O)N4CCCC4)cc3)nc12 ; value: <0.1 µM
Cc1ccc(S(=O)(=O)Oc2cc(F)ccc2/C=N/NC(=O)Cc2cccc(Cl)c2)cc1 ; cell line: Huh7 ; value: <5 µM
Cc1cc(-c2cc(N(C(=O)C3CCC(C)CC3)C(C)C)c(C(=O)O)s2)cnc1NC(=O)c1cscn1 ; strain: 1a ; value: <0.5 µM
COc1nc(N)nc2c1ncn2[C@@H]1O[C@H](COP(=O)(N[C@@H](C)C(=O)OC(C)C)Oc2ccccc2)[C@@H](O)[C@@]1(C)F ; strain: 2a ; conditions: 20 d ; value: 0.032 µM
Nc1nc(N2CCS(=O)(=O)CC2)c2nc(-c3ccc(C(=O)NC4CC4)cc3)ccc2n1 ; cell line: Huh7 ; value: <0.3 µM
CC1CCC(C(=O)N(c2cc(-c3ccc(NC(=O)c4ccco4)nc3)sc2C(=O)O)C(C)C)CC1 ; strain: 1b ; value: <0.5 µM
O=C(Cc1cc(C(F)(F)F)cc(C(F)(F)F)c1)N/N=C/c1ccccc1OS(=O)(=O)c1ccc(C(F)(F)F)cc1 ; cell line: Huh7 ; value: <5 µM
CC1CCC(C(=O)N(c2cc(-c3ccc(NC(=O)c4cn[nH]c4)cc3)sc2C(=O)O)C(C)C)CC1 ; strain: 1a ; value: >0.5 µM
CC(C)(CN1CCOCC1)NC(=O)c1ccc(-c2ccc3nc(N)nc(O[C@H]4CCOC4)c3n2)cc1 ; cell line: Huh7 ; value: <0.3 µM
O=C(Nc1ccc(C2SC(=Nc3cccnc3)N(Cc3cccc(F)c3)C2=O)cc1)[C@H]1C[C@H](O)CN1C(=O)OCc1ccccc1 ; cell line: Huh7 ; value: 0.1–1 µM
COc1cc(-c2ccc3nc(NCc4ccc(S(N)(=O)=O)cc4)nc(NCC(F)(F)F)c3n2)ccn1 ; value: <0.1 µM
Cc1cc(-c2cc(N(C(=O)C3CCC(C)CC3)C(C)C)c(C(=O)O)s2)ncc1NC(=O)c1cscn1 ; strain: 1b ; value: <0.5 µM
C[C@@H](NC(=O)OCc1ccccc1)C(=O)Nc1ccc(C2SC(=Nc3ccc(N4CCOCC4)cc3)N(Cc3ccccn3)C2=O)cc1 ; cell line: Huh7 ; value: <0.1 µM
CC1CCC(C(=O)N(CC2CC2)c2cc(-c3ccc(NC(=O)c4cscn4)cc3)sc2C(=O)O)CC1 ; strain: 1b ; value: <0.5 µM
COc1cccc(CC(=O)N/N=C/c2ccccc2OS(=O)(=O)c2cc(OC)ccc2OC)c1 ; cell line: Huh7 ; value: <5 µM
O=C(Nc1ccc(C2SC(=Nc3cccc(F)c3)N(Cc3ccco3)C2=O)cc1)[C@H]1CCC(=O)N1C(=O)OCc1ccccc1 ; cell line: Huh7 ; value: 0.1–1 µM
CCC(=O)Nc1ccc(-c2ccc3nc(N)nc(NCCOC)c3n2)cc1 ; cell line: Huh7 ; value: <0.3 µM
CO[C@@H](C(=O)N1CCC[C@@H]1C(=O)Nc1ccc(C2SC(=Nc3ccc(N4CCOCC4)cc3)N(Cc3ccccn3)C2=O)cc1)c1ccccc1 ; cell line: Huh7 ; value: <0.1 µM
COc1cccc(CC(=O)N/N=C/c2ccc(C)cc2OS(=O)(=O)c2ccc(C)cc2)c1 ; cell line: Huh7 ; value: <5 µM

3 of the rows above, restated:

| structure | strain | conditions | cell line | value |
|---|---|---|---|---|
| CC1CCC(C(=O)N(CC2CC2)c2cc(-c3ccc(NC(=O)c4cscn4)cc3)sc2C(=O)O)CC1 | 1b | - | - | <0.5 µM |
| C[C@@H](NC(=O)OCc1ccccc1)C(=O)Nc1ccc(C2SC(=Nc3ccc(N4CCOCC4)cc3)N(Cc3cccnc3)C2=O)cc1 | - | - | Huh7 | 0.1–1 µM |
| CC1CCC(C(=O)N(c2cc(-c3ccc(NC(=O)c4ccco4)nc3)sc2C(=O)O)C(C)C)CC1 | 1b | - | - | <0.5 µM |